Experimental findings from paper PMC9954444, “SERPIN-Derived Small Peptide (SP16) as a Potential Therapeutic Agent against HIV-Induced Inflammatory Molecules and Viral Replication in Cells of the Central Nervous System” (Cells, 2023) are described below.

The test system of one test is EcoHIV. In words: p24 gag in brain homogenates of EcoHIV-infected mice, ELISA. Particulars: SP16 10 μg/kg intranasal added to cART, brain homogenate. It is filed as in vivo, EcoHIV-NDK.
Test [1] relates to HIV-1SF162. Put plainly: HIV p24 ELISA in endothelial cells. Particulars: HIV-infected endothelial cells; 250 μg/mL SP16; 12 h. The class given is cell-based. The procedure: Human primary cells obtained from ScienCell Research Laboratories (Carlsbad, CA, USA) included primary astrocytes (catalog # 1800), primary brain microvascular endothelial cells (BMECs) (catalog # 1710), and primary pericytes (catalog # 1200). Human cell lines obtained from American Type Culture Collection (ATCC; Manassas, VA, USA) included microglia (catalog # CRL-3304). Cells were seeded in 24-well plates coated with poly-L-lysine (0.1 mg/mL) and maintained for 5–10 days at 37 °C and 5% CO2 [39, 40, 41, 42, 43]. Cells were maintained in their respective growth medium supplemented with fetal bovine serum-FBS (10%) procured from Hyclone (Logan, UT, USA), and penicillin/streptomycin (1%) procured from Invitrogen (Waltham, MA, USA). Media was discarded every other day, and fresh media was added.
The HIV-1SF162 strain, from the macrophage lineage isolated from Dr. Jay Levy, was obtained through the NIH (Germantown, MD, USA) Research and Reference Reagent Program. Cells were infected with 1 ng/mL of HIV (p24/10^6 cells) as performed previously. […]
Levels of cytokines and chemokines in cell supernatant and postmortem brain homogenates were measured using an ELISA kit from R&D Systems (Minneapolis, MN, USA) as per the manufacturer’s protocol. […] The optical density was read at A450 with wavelength correction at A570 on a Synergy HTX plate reader from BioTek (Winooski, VT, USA).
A general note: In an ELISA, binding on a coated surface is turned into a signal by an enzyme label.

In test [2] the test system is primary mixed glia cultures. Put plainly: ELISA of inflammatory molecules in mouse brain glia. It is filed as cell-based, C57BL/6J mice. Particulars: 250 μg/mL SP16, 12 h post-treatment (Figure 9 legend: 24 h).
Test [3] relates to HIV-1SF162. Put plainly: HIV p24 gag protein ELISA in microglia. The class given is cell-based. The settings on record: 12 h.
For test [4], the system named is primary mixed glia cultures. Put plainly: Immunoblotting of LRP-1, NF-κB and Akt in mouse glia. It is filed as cell-based, C57BL/6J mice. The procedure:
Proteins in brain cell lysates and postmortem brain homogenates were separated by SDS-PAGE, transferred to PVDF membranes, and subsequently incubated with primary antibodies from Santa Cruz Biotechnology (Dallas, TX, USA), including NF-κB at 1:200 dilution (catalog # sc-8008) and β-actin at 1:200 dilution (catalog # sc-47778). Antibodies from Abcam (Boston, MA, USA), including Akt at dilution 1:500 (catalog # ab-38449) and LRP-1 at dilution 1:50,000 (catalog # ab-92544). After primary antibodies, membranes were incubated with horseradish peroxidase-conjugated secondary antibodies followed by exposure to SuperSignal West Femto Substrate from Thermo Scientific (Waltham, MA, USA). Membranes were visualized using a ChemiDoc imaging system from Bio-Rad (Hercules, CA, USA) and protein expression was calculated using Image J software from NIH (Bethesda, MD, USA).
C57BL/6J mice (Jackson Laboratory, Bay Harbor, ME, USA) were bred in the animal facility at Florida International University. Mice were placed 3–5 per cage and maintained in a controlled temperature and humidity room. The animals were cared for in accordance with the Principles of Animal Care outlined by the National Institutes of Health and approved by the Institutional Animal Care and Use Committee of Florida International University. Protocol Approval: IACUC-21-007-CR01. The EcoHIV-NDK plasmid used was provided by Dr. David Volsky at Mount Sinai school of medicine. The plasmid was transfected in HEK293T cells to generate EcoHIV stocks as previously described. For the in vivo experiments, male mice between the ages of 4–6 months were administrated 1 mL of either saline or 1 × 10^6 pg p24 units of EcoHIV by intraperitoneal (IP) cavity. After 3–4 weeks, animals received cART daily via IP administration. The cART regimen consisted of Emtricitabine, Ritonavir, and Atazanavir at a concentration of 100 mg/kg each, based on previously published literature by others. A subset of cART treated animals received SP16 every other day at concentration of 10 μg/kg, via the intranasal route, as described previously by us. After treatments (at day 5), mice were sacrificed and whole brains, excluding the brainstem and the olfactory bulb, were collected. Half of the recovered brain hemisphere was used for immunohistochemistry and LC-MS/MS while the other half was homogenized and used for biochemical assays. For protein biochemical assays, postmortem brains were homogenized in cell lysis buffer (Thermo Scientific, Waltham, MA, USA) using a bead-beater apparatus (MagNA Lyser, Roche, Indianapolis). Bioavailability of SP16 in the brain was monitored with LC-MS/MS using 703 (triple charged) parent ion and its two daughter ions 129.1 and 84.1. […]

Where [5] appears, read: mouse glia, 25 and 250 μg/mL SP16.

`CCCC[C@H](NC(=O)[C@H](CC(C)C)NC(=O)[C@H](Cc1ccccc1)NC(=O)[C@@H](NC(=O)[C@H](Cc1ccccc1)NC(=O)[C@@H]1CCCN1C(=O)[C@H](CCCCN)NC(=O)[C@H](CC(N)=O)NC(=O)[C@H](Cc1ccccc1)NC(=O)[C@H](CCCCN)NC(=O)[C@@H](NC(C)=O)C(C)C)C(C)C)C(=O)N[C@H](C(=O)N[C@@H](CCC(=O)O)C(=O)N[C@@H](CCC(N)=O)C(=O)N[C@@H](CC(N)=O)C(=O)N[C@H](C(=O)N[C@@H](CCCCN)C(N)=O)[C@@H](C)O)[C@@H](C)CC` [SP16]: in the test with EcoHIV, the “further decrease in p24 gag after exposure with SP16” value was determined as 19%. Further, the “levels of HIV p24” value in the test on HIV-1SF162 [1] is on record as “Attenuation”. Also, in test [2], the “decrease in secretion levels of IL-6” value was “about 25%” and the “decrease in secretion levels of MCP-1” value is recorded as “about 80%”. Moreover, in the test on HIV-1SF162 [3] (HIV-infected microglia in wells without the BBB, SP16 1 and 100 µg/mL), the “viral load, p24 gag protein” value was “attenuated in a concentration-dependent manner”. The “viral-induced p24 levels” value in the test on HIV-1SF162 [3] (HIV-infected microglia with the BBB inserts) is “unaffected”. Also, the “reduction of NF-κB expression level” value in test [4] (250 μg/mL SP16, compared to infected glia without SP16) was “more than 75%”. For the same molecule, the “expression of Akt” value in test [4] (mouse glia, 250 μg/mL SP16) is given as “significantly induced”. In test [4] (setting [5]), the “expression levels of LRP-1” value is recorded as “significantly downregulated” and the “expression levels of NF-κB” value is on record as “significantly downregulated”.
